Molecular target: MERS-CoV England1 RBD (residues 367–606) for crystallography (MERS-CoV, England1 strain (AFY13307), UniProt K9N5Q8)
Assay: crystal structure
Details: both partners purified

B1: D12 Fab (Fab, V domains shown)
VH: EVKLVESGGGLVKPGGSLKLSCAASGFTFSSYAMSWVRQTPEKRLEWVATISSGGTYTYYPDSVKGRFTISRDNAENTLYLQMSSLRSEDTAMYYCVRDGNSMDYWGQGTSVTVSS
VL: DIQMTQTTSSLSASLGDRVTIICRASQDINNYLNWYQQKPDGTVKLLIYYTSRLHSGVPSRFSGSGSGSDYSLTISNLEQEDIATYFCQQANTLPPTFGAGTKLELR
notes: also called D12 antibody as an Fab; source: prepared from D12 with the Pierce Mouse IgG1 Fab kit, purified (Superdex S200)
  binding result: binds
